Experimental data reported in patent US20230381142A1, “ANTILEISHMANIAL COMPOUNDS, COMPOSITIONS AND USE THEREOF” (TRUSTEES OF BOSTON UNIVERSITY, priority 2022, published 2023).

system: L. donovani intracellular amastigotes infecting THP-1 macrophages; experiment: GSK intramacrophage L. donovani assay (LD AMMAC, inMac; Assay Conditions C); format: cell-based, Leishmania donovani; settings: (LD MAC EC50)/(LD AMMAC EC50)
Description: Assay Conditions C: The intramacrophage Leishmania donovani activity assay was performed as described in Antimicrob Agents Chemother (2013) 57(7):2913-22.
The intramacrophage Leishmania donovani activity assay (LD AMMAC) at GlaxoSmithKline was performed as described.
Given the literature precedents described above and the apparent narrow tolerance for R^3 substitutions observed in the primary screen compounds, a thorough and methodical assessment was undertaken of tolerated groups at the three points of diversity (R^1/R^2/R^3) for the core. At this stage of the project, all analogues were assessed using a battery of assays performed in-house at GlaxoSmithKline. For antileishmanial activity, GSK's inMac assay was utilized. This assay provides two readouts of compound potency: average number of intracellular amastigotes per infected cell (AMMAC) EC50, percentage of infected cells per well (INFCELL) EC50, as well as a toxicity output derived from the number of host cells (MAC EC50). In addition, compounds were assessed for toxicity against HepG2 cells (HEPG2 EC50). Here, AMMAC EC50 values were focused on for relative potency assessments. […] It should be noted that for all compounds assessed in this project, the measured toxicity against THP-1 macrophages either equaled or exceeded that of HepG2 hepatocytes, therefore the MAC SI is used here as the more conservative estimate of therapeutic index.

In the case of COc1ccc(N2C(=O)c3[nH]nc(CC(C)C)c3C2c2ccc(F)c(C)n2)cc1 (stereo not drawn) [Compound S13], the “SI MAC” value is reported as over 4.0.
With CC(C)Cc1n[nH]c2c1C(c1ccc(F)cc1)N(CCN1CCCC1)C2=O (stereo not drawn) [Compound 39] the “SI MAC” value was over 3.2.

First: COc1ccc(N2C(=O)c3[nH]nc(CC(C)C)c3C2c2ccccc2F)cc1 (stereo not drawn) [Compound 54]
Second: COc1ccc(N2C(=O)c3[nH]nc(CC(C)C)c3C2c2ccc(Br)cc2)cc1 (stereo not drawn) [Compound 48]
The “SI MAC” value of the first is higher: 9.9 for the first, 2.5 for the second.

First: C=C(C)CCc1n[nH]c2c1C(c1ccc(F)cc1)N(c1ccc(OC)cc1)C2=O (stereo not drawn) [Compound 13]
Second: CCc1ccc(N2C(=O)c3[nH]nc(CC(C)C)c3C2c2ccc(F)cc2)cc1 (stereo not drawn) [Compound 22]
The “SI MAC” value of the first is lower: 3.2 for the first, 5.0 for the second.

For COc1ccc(N2C(=O)c3[nH]nc(CC(C)C)c3C2c2ccncc2)cc1 (stereo not drawn) [Compound S6], the “SI MAC” value was 1.0.

same assay, conditions: THP-1 CC50 / L. donovani EC50 (THP-1)

Compared with COc1cc(N2C(=O)c3[nH]nc(CC(C)C)c3C2c2ccc(F)cc2)ccc1F (stereo not drawn) [CMLD011073], CC(C)Cc1n[nH]c2c1C(c1ccc(F)cc1)N(c1ccc(N3CCCC3=O)cc1)C2=O (stereo not drawn) [CMLD011560] is higher in “SI Host cell potency/L. donovani potency” value: 0.8 for the first, 5.0 for the second.

First: C#CCn1nc2c(c1CC(C)C)C(c1ccc(F)cc1)N(c1ccc(OC)cc1)C2=O (stereo not drawn) [CMLD010986]
Second: COc1ccc(N2C(=O)c3nn(C)c(CC(C)C)c3C2c2ccc(F)cc2)cc1 (stereo not drawn) [CMLD010988]
The “SI Host cell potency/L. donovani potency” value of the first is higher: 7.9 for the first, 3.2 for the second.

same assay, conditions: rows whose L. donovani EC50 is in THP-1 cells (c)

First: COc1ccc(N2C(=O)c3[nH]nc(CC(C)C)c3C2C2CCN(Cc3ccccc3)CC2)cc1 (stereo not drawn) [CMLD010882]
Second: COc1ccc(N2C(=O)c3[nH]nc(CC(C)C)c3C2c2ccccc2OC)cc1 (stereo not drawn) [CMLD010994]
The “SI Host cell potency/L. donovani potency” value of the first is lower: 1.3 for the first, 50.2 for the second.

COc1ccccc1N1C(=O)c2[nH]nc(CC(C)C)c2C1c1cccc(C(F)(F)F)c1 (stereo not drawn) [CMLD011141] and CC(C)Cc1n[nH]c2c1C(c1cccc(C(F)(F)F)c1)N(c1ccc(N(C)C)cc1)C2=O (stereo not drawn) [CMLD010925] are the same in “SI Host cell potency/L. donovani potency” value: 2.5 for the first, 2.5 for the second.

First: C=CCCc1n[nH]c2c1C(c1ccc(F)cc1)N(c1ccc(OC)cc1)C2=O (stereo not drawn) [CMLD011024]
Second: CCOc1ccc(N2C(=O)c3[nH]nc(CC(C)C)c3C2c2ccc(F)cc2)cc1 (stereo not drawn) [CMLD010900]
The “SI Host cell potency/L. donovani potency” value of the first is lower: 2.0 for the first, 12.5 for the second.

Compared with COc1ccc(N2C(=O)c3c(c(CC(C)C)nn3C)C2c2ccc(F)cc2)cc1 (stereo not drawn) [CMLD010989], COc1ccc(N2C(=O)c3[nH]nc(CC(C)C)c3C2c2ccc(C(=O)O)cc2)cc1 (stereo not drawn) [CMLD011032] is lower in “SI Host cell potency/L. donovani potency” value: 15.8 for the first, 1.0 for the second.

Going from COc1ccc(N2C(=O)c3[nH]nc(CC(C)C)c3C2c2cnccc2OC)cc1 (stereo not drawn) [CMLD011577] to COc1ccc(N2C(=O)c3[nH]nc(CC(C)C)c3[C@@H]2c2ccc(F)cc2C)cc1 [CMLD010949], the “SI Host cell potency/L. donovani potency” value rises from 2.0 to 79.4.

Going from COc1ccc(N2C(=O)c3[nH]nc(CC(C)C)c3C2c2ccsc2)cn1 (stereo not drawn) [CMLD011137] to COc1ccc(N2C(=O)c3[nH]nc(CC(C)C)c3C2c2c(Cl)cccc2Cl)cc1F (stereo not drawn) [CMLD011568], the “SI Host cell potency/L. donovani potency” value rises from 2.5 to 3.2.

Compared with CC(C)Cc1n[nH]c2c1C(c1ccccc1Br)N(c1ccc(F)cc1)C2=O (stereo not drawn) [CMLD011111], CC(C)Cc1n[nH]c2c1C(c1cccc(C(F)(F)F)c1)N(c1ccc3ncnn3c1)C2=O (stereo not drawn) [BUCMD00804] is higher in “SI Host cell potency/L. donovani potency” value: 4.0 for the first, 6.3 for the second.

In the case of COc1ccc(N2C(=O)c3[nH]nc(CC(C)C)c3C2c2ccc(F)cn2)cc1 (stereo not drawn) [CMLD011100], the “SI Host cell potency/L. donovani potency” value is reported as over 5.0.
With COc1ccc(N2C(=O)c3[nH]nc(CC(C)C)c3C2c2ncccc2OC)cc1 (stereo not drawn) [CMLD011578] the “SI Host cell potency/L. donovani potency” value was under 0.2.
For CC(C)Cc1n[nH]c2c1C(c1ccc(F)cc1)N(c1ccc(-n3ccnc3)cc1)C2=O (stereo not drawn) [BUCMD00815], the “SI Host cell potency/L. donovani potency” value was over 20.
With CC(C)Cc1n[nH]c2c1C(c1ccccc1Br)N(CCN1CCCC1)C2=O (stereo not drawn) [BUCMD00798] the “SI Host cell potency/L. donovani potency” value was over 1.6.
For CC(C)Cc1n[nH]c2c1C(c1ccc(F)cc1)N(c1cccnc1)C2=O (stereo not drawn) [CMLD011098], the “SI Host cell potency/L. donovani potency” value was over 2.0.
